{
  "source": "patent US20060275317A1",
  "about": "“Vaccine compositions for prevention of chronic and infectious diseases” (Biokit S.A., priority 2003, published 2006)",
  "molecules": {"B1": {"name": "His104A (protein)", "chain": "MSPILGYWKIKGLVQPTRLLLEYLEEKYEEHLYERDEGDKWRDKKFELGLEFPNLPYYIDGDVKLTQSMAIIRYIADKHNMLGGCPKERAEISMLEGAVLDIRYGVSRIAYSKDFETLKVDFLSKLPEMLKMFEDRLCHKTYLNGDHVTHPDFMLYDALDVVLYMDPMCLDAFPKLVCFKKRIEAIPQIDKYLKSSKYIAWPLQGWQATFGGGDHPPKSDLVPRGSCVSCTTVCPHAGKAKAEKVECALKGGIFRGTLPAADCPGIDTTVTFNADGTAQKVELALEKKSAPSPLTYRGTWMVREDGIVELSLVSSEQSKAPAEKELYELIDSNSVRYMGAPGAGKPSKEMAPFYVLKKTKK"}},
  "key": {"lysozyme": {"target": "T1, lysozyme (Homo sapiens, UniProt P61626)", "T1 sequence (P61626 19-148)": "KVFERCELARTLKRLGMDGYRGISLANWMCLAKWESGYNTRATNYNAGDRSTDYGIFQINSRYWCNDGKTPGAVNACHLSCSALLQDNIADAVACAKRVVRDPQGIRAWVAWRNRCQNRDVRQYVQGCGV", "assay": "Lysozyme binding of GST-Tp17 mutants (blot, FIG. 36)"}, "human lysozyme": {"tested_on": "human lysozyme", "assay": "Lysozyme inhibition assay of GST-Tp17 mutants", "type": "biochemical", "details": "2 units human lysozyme; 45 min 37° C"}},
  "data": [
    {"molecule": "B1", "values": [
      {"measurement": "ability to bind lysozyme", "setting": "lysozyme", "result": "retained their ability to bind lysozyme"},
      {"measurement": "lysozyme inhibition relative to wild-type Tp17", "setting": "human lysozyme", "result": "decrease in lysozyme inhibition"}
    ]}
  ]
}
